IC50 of inhibition of migration of human melanoma A375 cells (transwell, 6 h) data for one substance are collected here from paper PMC7695343, “Structural Insight into Integrin Recognition and Anticancer Activity of Echistatin” (2020).

For the experiment, the target named is integrin αvβ3 expressed on CHO cells (CHO-αvβ3) (UniProt P06756).

Turning to Ech (K45E) (natural protein), the IC50 of inhibition of migration of human melanoma A375 cells (transwell, 6 h) was 13.3 nM.
